Measured values from several laboratories, pooled; numbers as filed in NIAID ChemDB.

Shared fields: growth or infection tests; agent: Staphylococcus aureus; measure: MIC

Two numbers with a dash give a range or band. Lines come from different laboratories, so protocols vary.

structure,strain or isolate,value
CC1NCc2cc(-c3c(F)cc4c(=O)c(C(=O)O)cn(C5CC5)c4c3OC(F)F)ccc21,FDA209P,0.0313 µg/mL
CC(=S)NC[C@H]1CN(c2ccc(-c3nnc(CNS(C)(=O)=O)s3)c(F)c2)C(=O)O1,UC9213 (methicillin-susceptible),1 µg/mL
COc1ccc(CNc2cc3c(cc2F)c(=O)c(C(=O)O)cn3C2CC2)cc1OC,ATCC 5278 (methicillin-resistant),>100 µg/mL
CSc1ccc(N2C[C@H](CNC(C)=O)OC2=O)cc1F,ATCC 29213 (linezolid-resistant),>64 µg/mL
CC(=S)NC[C@H]1CN(c2ccc(-c3nnc(CN)s3)c(F)c2)C(=O)O1,UC9213 (methicillin-susceptible),<0.5 µg/mL
O=C(O)c1cn(C2CC2)c2cc(NCCN3CCCCC3)c(F)cc2c1=O,ATCC 5278 (methicillin-resistant),>100 µg/mL
CN(C)c1cc(CNC2CCCCC2)c(O)c2c1C[C@H]1C[C@H]3[C@H](N(C)C)C(=O)C(C(N)=O)=C(O)[C@@]3(O)C(=O)C1=C2O,MRSA5 (methicillin-resistant),0.5 µg/mL
O=C1O[C@@H](COc2ccon2)CN1c1ccc(-n2ccnn2)c(F)c1,078 (oxford),4 µg/mL
COc1c(-c2ccc3c(c2)CNC3C)c(F)cc2c(=O)c(C(=O)O)cn(C3CC3)c12,FDA209P,0.0156 µg/mL
COCCNc1cc2c(cc1F)c(=O)c(C(=O)O)cn2C1CC1,ATCC 5278 (methicillin-resistant),3.12 µg/mL
CN1COc2c(N3CC4C5CCC(N)(CC5)C4C3)c(F)c(N)c3c(=O)c(C(=O)O)cn1c23,ICB 25701,2 µg/mL
CS(=O)(=O)N[C@H]1CCN(c2ccc(N3C[C@H](COc4ccon4)OC3=O)cc2F)C1,122 (novobiocin-resistant),4 µg/mL
N#Cc1cnn(-c2ccc(C3=NO[C@@H](CNC(=O)O)C3)cc2F)c1,UC9213,2 µg/mL
CN(C)c1cc(CNC2CCCC2)c(O)c2c1C[C@H]1C[C@H]3[C@H](N(C)C)C(=O)C(C(N)=O)=C(O)[C@@]3(O)C(=O)C1=C2O,MRSA5 (methicillin-resistant),0.5 µg/mL
O=C(O)NC[C@H]1CC(c2ccc(-n3cccc3)c(F)c2)=NO1,UC9213,2 µg/mL
CC1NCc2ccc(-c3ccc4c(=O)c(C(=O)O)cn(C5CC5)c4c3OC(F)F)cc21,FDA209P,0.125 µg/mL
O=C(O)NC[C@H]1CC(c2ccc(N3CCOCC3)c(F)c2)=NO1,UC9218,4 µg/mL
CC1NCc2cc(-c3ccc4c(=O)c(C(=O)O)cn(C5CC5)c4c3OC(F)F)ccc21,FDA209P,0.0625 µg/mL
CCN(CC)CCN(C)c1cc2c(cc1F)c(=O)c(C(=O)O)cn2C1CC1,ATCC 5278 (methicillin-resistant),>100 µg/mL
CC(=O)NC[C@H]1CN(c2ccc(SCCC#N)c(F)c2)C(=O)O1,ATCC 29213 (linezolid-resistant),>64 µg/mL
COc1ccc(-c2ccc(C3=CC(CNC(C)=O)OC3=O)cc2)ccc1=O,UC9218,2 µg/mL
Nc1nc(-n2cc(C(=O)O)c(=O)c3cc(F)c(N4CC(N)C4)c(F)c32)c(F)cc1F,209P,0.025 µg/mL
O=C(O)c1cn(C2CC2)c2cc(-c3ccc4c(c3)CNC4)ccc2c1=O,FDA209P,0.0625 µg/mL
CCN(CC)CCCNc1cc2c(cc1F)c(=O)c(C(=O)O)cn2C1CC1,ATCC 6538P,50 µg/mL
O=C1O[C@@H](COc2ccon2)CN1c1ccc(N2CC(O)C2)c(F)c1,122 (novobiocin-resistant),16 µg/mL
O=C(O)c1cn(C2CC2)c2c(OC(F)F)c(-c3ccc4c(c3)CNC4)c(F)cc2c1=O,FDA209P,0.0313 µg/mL
Nc1nc(-n2cc(C(=O)O)c(=O)c3cc(F)c(N4CC(N)C4)c(Cl)c32)c(F)cc1F,209P,<0.013 µg/mL
CC(=O)NC[C@H]1CN(c2ccc(Sc3ncc([N+](=O)[O-])s3)c(F)c2)C(=O)O1,ATCC 29213 (linezolid-resistant),8 µg/mL
CCCC[C@H](CC(=O)NO)C(=O)N[C@@H](CC(C)C)C(=O)Nc1ccc2ccccc2c1,3 strains,1–2 µg/mL
CN(C)[C@@H]1C(=O)C(C(N)=O)=C(O)[C@@]2(O)C(=O)C3=C(O)c4c(O)ccc(-c5ccoc5)c4C[C@H]3C[C@@H]12,MRSA5 (methicillin-resistant),1 µg/mL
COc1c(-c2ccc3c(c2)CNC3C)ccc2c(=O)c(C(=O)O)cn(C3CC3)c12,FDA209P,0.0625 µg/mL
Nc1nc(-n2cc(C(=O)O)c(=O)c3cc(F)c(N4CC[C@H](N)C4)c(F)c32)c(F)cc1F,209P,0.05 µg/mL
CC(=S)NC[C@H]1CN(c2ccc(-c3nnc(CN(C)S(C)(=O)=O)s3)c(F)c2)C(=O)O1,UC9213 (methicillin-susceptible),2 µg/mL
NCCCCNc1cc2c(cc1F)c(=O)c(C(=O)O)cn2C1CC1,ATCC 6538P,>100 µg/mL
O=C(O)NC[C@H]1CC(c2ccc(-n3ccnc3)c(F)c2)=NO1,UC9213,2 µg/mL
COCCSc1ccc(N2C[C@H](CNC(C)=O)OC2=O)cc1F,ATCC 29213 (linezolid-resistant),>64 µg/mL
CN(C)c1cc(CNCC(C)(C)C)c(O)c2c1C[C@H]1C[C@H]3[C@H](N(C)C)C(=O)C(C(N)=O)=C(O)[C@@]3(O)C(=O)C1=C2O,MRSA5 (methicillin-resistant),0.25 µg/mL
CC(=S)NC[C@H]1CN(c2ccc(-c3nnc([C@@H]4CCCN4)s3)c(F)c2)C(=O)O1,UC9213 (methicillin-susceptible),2 µg/mL

For reference, 3 entries again:

structure | strain or isolate | value
O=C(O)NC[C@H]1CC(c2ccc(-n3ccnc3)c(F)c2)=NO1 | UC9213 | 2 µg/mL
O=C(O)c1cn(C2CC2)c2cc(NCCN3CCCCC3)c(F)cc2c1=O | ATCC 5278 (methicillin-resistant) | >100 µg/mL
CCN(CC)CCN(C)c1cc2c(cc1F)c(=O)c(C(=O)O)cn2C1CC1 | ATCC 5278 (methicillin-resistant) | >100 µg/mL